In PMC12171682, “Saarvienin A—A Novel Glycopeptide with Potent Activity against Drug‐Resistant Bacteria” (Angewandte Chemie (International Ed. in English), 2025):
In brackets after ≈: the same amount, converted by molar mass.

What was measured:
Conditions in all cases: broth microdilution, cation-adjusted Mueller-Hinton Broth II, ~4 × 10⁵ CFU/mL, 37 °C, 24 h; mean of three independent biological replicates, each in technical triplicate
[1] = test system: S. aureus ATCC 29213
[2] = test system: S. epidermidis DSM 28765
[3] = test system: K. pneumoniae DSM 681
[4] = test system: S. enterica DSM5569
[5] = test system: E. coli ATCC 25922
[6] = test system: P. aeruginosa PA14

Row | Structure (SMILES) | MIC, S. aureus ATCC 29213 [1] | MIC, S. epidermidis DSM 28765 [2] | MIC, K. pneumoniae DSM 681 [3] | MIC, S. enterica DSM5569 [4] | MIC, E. coli ATCC 25922 [5] | MIC, P. aeruginosa PA14 [6]
1 | CN[C@@]1(C)C[C@H](O[C@@H]2[C@H](O)C[C@H](O[C@H]3[C@H](C)O[C@@H](O[C@H]4[C@H](O[C@H]5[C@H](C)O[C@@H](Oc6ccc(C[C@@H](O)C(=O)N[C@H]7CNC(=O)NC[C@@H](C(=O)N[C@H](Cc8ccccc8)C(=O)O)NC(=O)[C@H]([C@H](C)c8c[nH]c9ccc(Cl)cc89)NC7=O)cc6)C[C@]5(C)N)O[C@@H](C)[C@H](O)[C@H]4O)C[C@]3(C)NC)O[C@H]2C)O[C@@H](C)[C@@H]1OC [Saarvienin A, saarvienin A] | 0.25 µg/mL (≈ 0.166 µM) | 0.25 µg/mL (≈ 0.166 µM) | >64 µg/mL | >64 µg/mL | >64 µg/mL | >64 µg/mL
2 | CN[C@H](CC(C)C)C(=O)N[C@H]1C(=O)N[C@@H](CC(N)=O)C(=O)N[C@H]2C(=O)N[C@H]3C(=O)N[C@H](C(=O)N[C@H](C(=O)O)c4cc(O)cc(O)c4-c4cc3ccc4O)[C@H](O)c3ccc(c(Cl)c3)Oc3cc2cc(c3O[C@@H]2O[C@H](CO)[C@@H](O)[C@H](O)[C@H]2O[C@H]2C[C@](C)(N)[C@H](O)[C@H](C)O2)Oc2ccc(cc2Cl)[C@H]1O [Vancomycin, vancomycin] | 2 µg/mL (≈ 1.38 µM) |  | >64 µg/mL | >64 µg/mL | >64 µg/mL | 
